# Test results from patent publication US12490739B2, “Synergistically effective fungicide composition comprising choline phosphonate and at least one additional fungicide” (BELCHIM CROP PROTECTION NV, priority 2019, dated 2025).
# System: Phytophthora infestans
# Test: Example 11 potted potato plants (Solanum tuberosum L. var. Bintje) infected with late blight, Belgium
# Settings: PESINC; 14 DA-A2; 1125 g a.c./ha
substance,measurement,value
cuprous oxide,CUP f.e. (%),46.8%
